From paper PMC9364801, “APOBEC3 selects V179I in HIV-1 reverse transcriptase to provide selective advantage for non-nucleoside reverse transcriptase inhibitor-resistant mutants” (Frontiers in virology, 2022)

Molecular target: HIV-1 reverse transcriptase (RT), HIV-1NL4-3 (Human immunodeficiency virus type 1 (NEW YORK-5 ISOLATE), UniProt P12497)
Design: gene gag-pol
Details: TZM-bl cells, MOI 0.02, 48 h; virus infectivity read-out; NNRTI pocket

`Cc1cc(/C=C/C#N)cc(C)c1Nc1ccnc(Nc2ccc(C#N)cc2)n1` [RPV, rilpivirine] was tested, and the “RPV EC50” value was 0.19 ± 0.06 nM.
